Source: PubChem BioAssay AID1259414 (Drosophila RNAi Screening Center, 2018)
The screen tested about 24,000 reagents; this is an unselected part of those that have a named target and a result. Of all reagents, about 1,210 (5%) got an active call. 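Inactive calls also include excluded dsRNAs with several or no targets, genes unexpressed in JW18, and well A1, regardless of score.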 A number with no mark means an inactive call. A plus sign joins genes that one reagent is predicted to hit.

- Test: 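Genome-wide screen for host control of endosymbiont load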 (primary screen)
- System: Drosophila JW18 cells infected with Wolbachia
- Reagent: long dsRNA against Drosophila genes, 0.25 µg dsRNA per well of a 384-well plate
- Time to read-out: 5 days
- Conditions: cells persistently infected with Wolbachia before knock-down; no added drug
- Measured: 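Automated imaging of bacterial rRNA staining divided by host cell count, reported as plate-normalised robust z-score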
- Scale: Wolbachia per cell robust z: higher = more Wolbachia per host cell than the plate typical
- Active means: 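Active if absolute robust z reaches 1.5 in two or more of three replicates, leaving out multi- or no-target dsRNAs, genes unexpressed in JW18 and A1 wells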

predicted target	PubChem SID	Wolbachia per cell robust z, rep 1	Wolbachia per cell robust z, rep 2	Wolbachia per cell robust z, rep 3
CG11951	SID104194234	-0.045	-0.383	-0.479
CG11951	SID104204189	0.894	-0.0604	-0.465
CG14120	SID104189916	-0.114	-0.824	0.354
CG14120	SID104206499	-0.689	0.472	-0.234
CG16974	SID104182343	0.525	-0.779	-1
CG16974	SID104207303	-0.131	-2.67	-1.25
RyR	SID104187335	-0.113	0.347	-0.967
CG33128	SID104180086	-1.68	1.05	0.179
CG33128	SID104207242	-1.15	0.117	-0.312

The list goes on, starting with the last 2 of the part before.
predicted target	PubChem SID	Wolbachia per cell robust z, rep 1	Wolbachia per cell robust z, rep 2	Wolbachia per cell robust z, rep 3
CG33128	SID104180086	-1.68	1.05	0.179
CG33128	SID104207242	-1.15	0.117	-0.312
CG1387	SID104197696	0.495	-0.576	-0.623
CG3184	SID104198081	-0.521	0.886	-0.417
CG17544	SID104182416	0.575	-0.373	-0.542
CG17544	SID104204107	1.44	0.138	-0.0291
seq	SID104215487	-3.02	-1.57	-1.14
CG42659	SID104218938	-1.4	-2.16	-1.58
CG15211	SID104199449	0.0785	0.0611	-0.411
CG42536	SID104218919	-3.14	-0.604	-0.56
Cyp304a1	SID104196415	-2.8 (active)	-0.466	-1.55
CG12061	SID104200507	-0.634	-1.3	0.0108
CG2574	SID104199654	0.487	-0.0254	0.93
CG5623	SID104195640	-5.41	-0.097	-0.0134
CG5139	SID104180473	-0.401	-6.2	0.807
CG5139	SID104205085	0.0654	-0.364	-0.112
Dhc98D	SID104196437	0.711	-0.436	-1.56
Dhc98D	SID104206328	0.197	1.75	1.27
RpL24-like	SID104195903	0.793	-4.72	1.14
CG34423	SID104218201	0.0667	0.4	0.217
Dtwd2 + Obp84a	SID104192395	-0.184	-0.142	-1.7
